The record followed here is the supplement of paper PMC9931576.

Human monoclonal antibodies against the spike receptor-binding domain (heavy:light variable regions). IC50 against pseudoviruses bearing the spike of naturally observed variants; lower = stronger; >10 µg/ml means not reached at the top dose. No active / inactive call. The stated detection limit is 0.0005 µg/ml; values near or below 0.001 µg/ml lie at the floor of the assay.

Common to all, as to test: pseudovirus neutralization IC50; higher = weaker neutralization
Test [1] concerns the target SARS-CoV-2 Omicron BA.1 spike pseudovirus. On the procedure: (§1)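 Single-round VSV luciferase pseudovirus mixed with antibody dilutions for 1 h and put on Huh-7 cells for about a day; IC50 from the dose curve.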
Test [2] deals with SARS-CoV-2 Omicron BA.2 spike pseudovirus. On the procedure:
as §1

Test [3] has as its target SARS-CoV-2 Omicron BA.2.75 spike pseudovirus. On the procedure:
as §1

The target of test [4] is SARS-CoV-2 Omicron BA.5 spike pseudovirus. On the procedure:
as §1

The target in test [5] is SARS-CoV-2 Omicron BQ.1.1 spike pseudovirus. On the procedure: as §1
The target of test [6] is SARS-CoV-2 Omicron XBB spike pseudovirus. On the procedure:
as §1

Test [7] concerns the target SARS-CoV-2 early D614G spike pseudovirus. On the procedure: as §1

B1: BD56-065 (protein)
chain 1: DVQLVQSGAEVKKPGESLKISCRGSGYSFARYWIGWVRQMPGKGLEWMGIIYPGNSDARYSPSFQGQVTISADKSINTAYLQWSSLKASDTAMYYCTRHATYCSTTTCYAEENYYYDMDVWGQGTTVTVSS
chain 2: QSALTQPASVSGSPGQSITISCTGTSSDVGGYHYVSWYQQHPGKAPKLMIYEVSNRPSGVSNRFSGSKSGNTASLTISGLQAEDEADYYCTSYTDSSTSYVFGSGTKVTVL
Turning to B1, the “pseudovirus neutralization IC50” value in test [1] is 3.58 µg/mL; in test [2], 2.49 µg/mL; in test [3], 2.21 µg/mL; in test [4], over 10 µg/mL; in test [5], over 10 µg/mL; in test [6], over 10 µg/mL. Moreover, in test [7], the “pseudovirus neutralization IC50” value was determined as 0.0589 µg/mL.

B2: BD56-069 (protein)
chain 1: EVQLVESGGGLVQPGRSLRLSCAASGFTFDDYAMHWVRQAPGKGLEWVSGISWNGGIIGFADSVKGRFVISRDNAENSLYLHMGSLRAEDTALYYCTKDIQFHGESAFDYWGQGTQVTVSS
chain 2: SYVLTQPPSVSVAPGQTARITCGGNNIGSKSVYWYQQKPGQAPVLVVYDDTDRPSGIPERLSGSNSGNTATLTISRVEAGDEADYFCQVWDSNSDHYVFGTGTKVTVL
For the molecule B2, the “pseudovirus neutralization IC50” value is 0.056 µg/mL in test [1]; 0.044 µg/mL in test [2]; 0.0578 µg/mL in test [3]; 0.884 µg/mL in test [4]; 0.95 µg/mL in test [5]; over 10 µg/mL in test [6]. In addition, the “pseudovirus neutralization IC50” value in test [7] turned out to be 0.0258 µg/mL.

B3: BD56-071 (protein)
chain 1: QVQLVQSGSELKKPGASVKVSCKASGFTFTNYAINWVRQAPGQGLEWMGWINTNIGDPTYARGFTGRFVFSLDTSVSTAYLQISSLKAEDTAVYYCARLGRFSTSWLDDAFDIWGQGTLVTVSS
chain 2: DIVMTQSPDSLAVSLGERATINCKSSHSVLFSPDNKNFLAWYQQKPGQPPKLLIYWASARESGVPDRFSGSGSGTDFTLTISSLQAEDVAVYYCQQYYSTPLTFGGGTKVEIK
Consider B3, for which the “pseudovirus neutralization IC50” value in test [1] was 0.00839 µg/mL; in test [2], 0.00671 µg/mL; in test [3], 0.0177 µg/mL; in test [4] it was 0.00734 µg/mL; in test [5], 2.25 µg/mL; in test [6] it was 2.09 µg/mL. Further, the “pseudovirus neutralization IC50” value in test [7] stood at 0.00526 µg/mL.

B4: BD56-058 (protein)
chain 1: EVQLVESGGGLVQPGRSLRISCAASGFTFEDYGIHWVRQAPGKGLEWVSGITWNGGTIGYADSVKGRFIISRDNAKNSMYLHMSRLGIEDTAVYYCAKEWGRVTTVRGVVVDTYYAMDVWGQGTTVTVSS
chain 2: QSALTQPPSASGSPGQSVTISCTGTSSDVGGYHSVSWYQQHPGTAPKLIIYEVTRRPSGVPHRFSASKSGNTASLTVSGLQAEDEADYYCSSYAGNNNFEGVVFGGGTKLTV
Turning to B4, the “pseudovirus neutralization IC50” value in test [1] is 0.0162 µg/mL; in test [2], 0.0187 µg/mL; in test [3], 0.0194 µg/mL; in test [4], 0.109 µg/mL; in test [5], 4.2 µg/mL; in test [6], 0.174 µg/mL. For the same molecule, in test [7], the “pseudovirus neutralization IC50” value was determined as 0.0183 µg/mL.

B5: BD56-056 (protein)
chain 1: EVQLVESGGGLVKPGGSLRLSCAASGFLFSSYTMNWVRQTPGKGLEWVSSISSNSDYKQYADSVKGRFTISRDNAKNSLSLQMNSLRADDTAVYYCAREGSYDILSPDPLDLWGQGTMVSVSS
chain 2: EIVMTQSPATLSVSPGERATLSCRASQSVSSNLAWYQQKPGQAPRLLIYGASTRATGIPARFSGSGSGTEFTLTISSLQSEDFAVYYCQQYHMWPSYTFGQGTKLEIK
Take B5: the “pseudovirus neutralization IC50” value in test [1], in test [2], in test [3], in test [4], in test [5] and in test [6] was over 10 µg/mL throughout. In test [7], the “pseudovirus neutralization IC50” value was 6.88 µg/mL.

B6: BD56-059 (protein)
chain 1: QVQLVQSGAEVKKPGSSVKVSCKASGGTFNNYAINWVRQAPGQGLEWMGRIIPMFEMAHYAQNFQGRVTMTADKSTSTAYMELSSLRSEDTAVFYCATSKFYYDGGEAYYFANWGQGTLVAVSS
chain 2: EIVLTQSPGTLSLSPGERATLSCRASQNVTSRYLAWYQQKPGQAPRLLIYGASTRATGIPDRFSGSGSGTDFTLTIRRLDPEDFAVYYCQQYHTSRTFGQGTKVEIK
As for B6, the “pseudovirus neutralization IC50” value in test [1] was 0.397 µg/mL; in test [2], 0.385 µg/mL; in test [3], 0.0493 µg/mL; in test [4], over 10 µg/mL; in test [5] it was over 10 µg/mL; in test [6], over 10 µg/mL. Also, the “pseudovirus neutralization IC50” value in test [7] was found to be 0.00836 µg/mL.
